Values of other authors, collected in US5468499A, “Liposomes containing the salt of phosphoramide mustard and related compounds” (Ohio State University, priority 1993, dated 1995).

Columns and labels:
[1] = cited from earlier work
[2] = test system: tumor; conditions: cited from earlier work

**Q.** With `O=P(O)(NCCCl)NCCCl` as the compound, how does the water solubility [1] read?
**A.** quite water-soluble

**Q.** And the “stability in aqueous solutions” value ([1]; versus phosphoramide mustard)?
**A.** more unstable in aqueous solutions than the phosphoramide mustard

**Q.** With `C=CC=O` as the compound, how does the “side effects among cyclophosphamide metabolites” value [2] read?
**A.** produces the most side effects

**Q.** For `NP(=O)(O)N(CCCl)CCCl`, which “anti-tumor effect among cyclophosphamide metabolites” value [2] is on record?
**A.** greatest anti-tumor effect
